Anti-infective test results gathered from many reports (values: NIAID ChemDB through PubChem).

Shared fields: tests on isolated targets; agent: HIV-1; target: Reverse transcriptase; endpoint: IC50

ICn is the concentration giving n% inhibition. An empty or dashed field is not shown. a–b is a range or a potency band. Rows are shuffled and stem from different studies.

SMILES | strain | mutations | read by | value
Oc1cc(O)c2c(c1)O[C@H](c1ccc(O)c(O)c1)[C@H](O)C2 | - | - | nucleotide incorporation | >20 µg/mL
CC(C)=CCN1Cc2cccc3[nH]c(=S)n(c23)C[C@@H]1C | NDK | - | nucleotide incorporation | 0.7 µM
Fc1ccc(F)c(C2OCc3nc4ccccc4n32)c1 | IIIB | - | nucleotide incorporation / radiometric | 57 µM
Cc1cn([C@H]2C=C[C@@H](COP(=O)(O)OP(=O)(O)OP(=O)(O)O)O2)c(=O)[nH]c1=O | - | - | nucleotide incorporation / radiometric | 0.2 µM
CC1OC(O)C2OC(=O)c3cc(O)c(O)c(O)c3-c3c(cc(O)c(O)c3O)C(=O)OC2C1O | - | - | nucleotide incorporation | >20 µg/mL
CCN1c2ncc(COc3cccnc3)cc2C(=O)N(C)c2ccc(Cl)nc21 | WT | - | nucleotide incorporation / radiometric | <1 µM
O=C(O)CCCC#CC#CCCCCCCCCCCCCCc1ccco1 | - | - | - | 39.9 µg/mL
S=C(NCCc1ccc(Br)s1)Nc1ccccn1 | - | - | - | 1.24 µM
Fc1ccc(Cl)c(C2OCc3nc4ccccc4n32)c1 | IIIB | - | nucleotide incorporation / radiometric | 90 µM
CC(C)c1c(COC(N)=O)cn(Cc2ccncc2)c1Sc1cc(F)cc(F)c1 | - | - | nucleotide incorporation / radiometric | 0.15 µM
Cc1cc(C)nc(NC(=S)NCCc2ccc(Br)s2)c1 | - | - | - | >100 µM
CN(c1ncccc1CO)C1CCN(C(=O)c2cc3cc(NS(C)(=O)=O)ccc3[nH]2)CC1 | IIIB | RT-Y181C | nucleotide incorporation | >50 µM
COC(=O)[C@@H](Cc1ccc(O)c(O)c1)OC(=O)/C=C/c1ccc(O)c(O)c1/C=C/c1ccc(O)c(O)c1 | - | - | nucleotide incorporation / radiometric | 50.58 µg/mL
CCN1c2ncc(CCc3ccccc3)cc2C(=O)N(C)c2ccc(Cl)nc21 | - | RT-Y181C | nucleotide incorporation / radiometric | <1 µM
CN(C)P(=O)(c1ccccc1)c1c(C(N)=O)[nH]c2ccc(Cl)cc12 | - | RT-Y181C | - | >3.57 µM
CN(C)C(=O)/C=C/CSc1nc(N)cc(Cl)n1 | - | RT-P236L | nucleotide incorporation | 0.07 µM
CCOC(=O)c1cn(C)cc1S(=O)(=O)c1cc(Cl)ccc1N | - | - | nucleotide incorporation / radiometric | 7.8–10.4 µM
CCN1c2ncc(COc3ccc(O)cc3)cc2C(=O)N(C)c2ccc(Cl)nc21 | WT | - | nucleotide incorporation / radiometric | <1 µM
Nc1cc(Cl)nc(SC/C=C/c2ccccc2)n1 | RT-WT | - | nucleotide incorporation | 0.19 µM
S=C(NCCc1ccc(Br)s1)Nc1nc2ccccc2s1 | - | - | - | >100 µM
Nc1ncnc2c1ncn2OCCOCP(=O)(O)OP(=O)(O)OP(=O)(O)O | - | - | - | 1.5 µM
CCN1c2ncc(COc3cccc4[nH]ccc34)cc2C(=O)N(C)c2ccc(Cl)nc21 | - | RT-Y181C | nucleotide incorporation / radiometric | <1 µM
CC(C)=CCn1cc2c(c1)S(=O)(=O)c1cc(Cl)ccc1NC2=S | - | - | nucleotide incorporation / radiometric | 4.2–5.6 µM
CCN1c2ncc(CCl)cc2C(=O)N(C)c2ccc(Cl)nc21 | - | RT-Y181C | nucleotide incorporation / radiometric | <1 µM
S=C(NCCc1ccc(Br)s1)Nc1nccs1 | - | - | - | 10 µM
CCC(C)Oc1nc(N)cc(S(=O)(=O)c2cccc(C)c2)n1 | IIIB | - | nucleotide incorporation / radiometric | 26.5 µM
CC(C)c1c(CO)cn(Cc2ccncc2)c1Sc1cc(Cl)cc(Cl)c1 | - | - | nucleotide incorporation / radiometric | 0.2 µM
S=C(NCCc1ccc(Br)s1)Nc1ccc(Br)cn1 | - | - | - | 0.92 µM
CCOC(=O)c1cn(Cc2ccncc2)c(Sc2cc(F)cc(F)c2)c1C(C)C | - | - | nucleotide incorporation / radiometric | 0.17 µM
O=C(O[C@@H]1OC2CC(=O)c3cc(O)c(O)c(O)c3-c3c(cc(O)c(O)c3O)C(=O)OC2C(O)C1O)c1cc(O)c(O)c(O)c1 | - | - | nucleotide incorporation | <20 µg/mL
CCN1c2ncc(COc3ccnc(C(F)(F)F)c3)cc2C(=O)N(C)c2ccc(Cl)nc21 | - | RT-Y181C | nucleotide incorporation / radiometric | <1 µM
O=C(/C=C/c1ccc(O)c(O)c1/C=C/c1ccc(O)c(O)c1)O[C@H](Cc1ccc(O)c(O)c1)C(=O)O | - | - | nucleotide incorporation / radiometric | 59.28 µg/mL
CC(C)c1c(COC(N)=O)cn(Cc2ccncc2)c1Sc1cccc(Cl)c1 | - | - | nucleotide incorporation / radiometric | 0.28 µM
O=C1OCC2OC(=O)c3cc(O)c(O)c(O)c3-c3c(O)c(O)c(O)c4c3C(=O)OC(C2OC(=O)c2cc(O)c(O)c(O)c2-c2c1cc(O)c(O)c2O)C1OC(=O)C2C4=C(O)C(=O)C23Oc2cc(O)c4c(c2C13)O[C@H](c1ccc(O)c(O)c1)C(O)C4 | - | - | nucleotide incorporation | >20 µg/mL
CCN1c2ncc(CCc3ccncc3)cc2C(=O)N(C)c2ccc(Cl)nc21 | WT | - | nucleotide incorporation / radiometric | <1 µM
CC(C)c1c(CO)cn(Cc2ccncc2)c1Sc1cccc(F)c1 | - | - | nucleotide incorporation / radiometric | 0.48 µM
O=C(O[C@@H]1O[C@@H]2COC(=O)c3cc(O)c(O)c(O)c3-c3c(cc(O)c(O)c3O)C(=O)O[C@H]([C@H]1O)[C@@H]2O)c1cc(O)c(O)c(O)c1 | - | - | nucleotide incorporation | <20 µg/mL

The first 3 rows once more:

SMILES	strain	mutations	read by	value
Oc1cc(O)c2c(c1)O[C@H](c1ccc(O)c(O)c1)[C@H](O)C2	-	-	nucleotide incorporation	>20 µg/mL
CC(C)=CCN1Cc2cccc3[nH]c(=S)n(c23)C[C@@H]1C	NDK	-	nucleotide incorporation	0.7 µM
Fc1ccc(F)c(C2OCc3nc4ccccc4n32)c1	IIIB	-	nucleotide incorporation / radiometric	57 µM